Source: patent publication US20090325909A1, “Suppression of HIV replication and prevention and treatment of HIV” (The Johns Hopkins University, priority 2003, published 2009)

System: MCP-1
Assay: MCP-1 expression in CSF, plasma and brain homogenates by ELISA
Format: in vivo
Details: all minocycline-treated macaques

SMILES: CN(C)c1ccc(O)c2c1C[C@H]1C[C@H]3[C@H](N(C)C)C(O)=C(C(N)=O)C(=O)[C@@]3(O)C(O)=C1C2=O [Minocycline, [4S-(4a,4aa,5aa,12aa)-4,7-bis(dimethylamino)-1,4,4a,5,5a,6,11,12a-octahydro-3,10,12,12a-tetrahydroxy-1,11-dioxo-2-naphthacenecarboxamide]monohydrochloride]
- MCP-1 ratio (CSF versus plasma) at terminal infection: below 2.65

Structures can show the parent of a compound that is named as a salt.
